For this assay, the target named is Biotinylated SARS-CoV-2 S protein, His Tag, active trimer (SARS-CoV-2, UniProt P0DTC2 16-1213). Put plainly: ELISA; CL-L1 coated on plate, biotinylated S protein 0-25 nM, HRP-streptavidin. (In general: An ELISA detects its analyte on a solid surface through an enzyme-linked reagent.)

B1: Recombinant human Collectin-10 (CL-L1) (other)
chain: LDIDSRPTAEVCATHTISPGPKGDDGEKGDPGEEGKHGKVGRMGPKGIKGELGDMGDQGNIGKTGPIGKKGDKGEKGLLGIPGEKGKAGTVCDCGRYRKFVGQLDISIARLKTSMKFVKNVIAGIRETEEKFYYIVQEEKNYRESLTHCRIRGGMLAMPKDEAANTLIADYVAKSGFFRVFIGVNDLEREGQYMFTDNTPLQNYSNWNEGEPSDPYGHEDCVEMLSSGRWNDTECHLTMYFVCEFIKKKK
With B1, the binding result is “no binding (tested: 25 nM)”.

(Values after patent US20240123029A1 (HUMANITAS MIRASOLE S P A, published 2024).)
